For one molecule, PLA spots per cell results are on record in article PMC4792379, “Time-Resolved Visualisation of Nearly-Native Influenza A Virus Progeny Ribonucleoproteins and Their Individual Components in Live Infected Cells” (2016).

The target of the assay is virus-encoded ribonucleoproteins (vRNPs) of the WSN-wt influenza A virus (influenza A virus A/WSN/33 (H1N1)), P15682. Nature of the assay: proximity ligation. The conditions noted are these: remark: other sources report otherwise.

B1: NP-mCherry fusion protein (influenza A virus nucleoprotein fused to mCherry), P15682 1-498 (natural protein)
chain: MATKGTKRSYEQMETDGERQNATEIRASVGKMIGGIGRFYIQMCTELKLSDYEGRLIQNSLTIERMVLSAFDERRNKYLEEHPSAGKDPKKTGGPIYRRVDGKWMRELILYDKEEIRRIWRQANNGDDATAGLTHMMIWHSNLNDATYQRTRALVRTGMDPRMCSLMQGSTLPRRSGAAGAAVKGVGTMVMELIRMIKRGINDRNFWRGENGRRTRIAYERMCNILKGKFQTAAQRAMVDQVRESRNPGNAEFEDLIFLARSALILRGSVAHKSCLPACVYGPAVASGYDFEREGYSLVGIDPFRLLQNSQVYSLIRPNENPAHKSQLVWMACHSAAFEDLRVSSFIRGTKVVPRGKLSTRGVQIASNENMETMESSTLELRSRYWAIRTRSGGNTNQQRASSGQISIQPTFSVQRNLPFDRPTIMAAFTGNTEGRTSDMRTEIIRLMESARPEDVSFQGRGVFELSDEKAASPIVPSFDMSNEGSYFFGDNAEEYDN
For the molecule B1, the PLA spots per cell was 147 spots/cell.
